## Share of PSTVd loop 15 variants by leaf site

Region: loop 15 of PSTVd (intermediate strain), upper and lower strand joined, each 5' to 3', the first 7 letters being the upper strand, closing pairs included. Wild type: GGAAACCGCUACUAC. Varied positions (N): GGAAACCGNNNNNNC.

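Three N. benthamiana plants were inoculated with the whole mutant pool. Progeny were sequenced from the inoculated region (day 5), the margin of the inoculated leaf (day 10) and systemic leaves (day 12).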

Values are reads per thousand in the sample; higher means more abundant, 0 means not found.
Each site shows the three plants.
"Pool" is the share in the plasmid pool used as inoculum, on the same scale.
The inoculated region was read from the minus strand, the other sites from the plus strand.
IR is the inoculated region, LM the leaf margin, Sys the systemic leaves.

sequence | pool | IR | LM | Sys
GGAAACCGACACGCC | 0.192 | 0.147 0.0803 0.133 | 0 0 0.0200 | 0 0 0
GGAAACCGACACGGC | 0.176 | 0.147 0.0803 0.0571 | 0.0162 0.0223 0 | 0 0 0
GGAAACCGACACGUC | 0.160 | 0.0819 0.129 0.0762 | 0.0162 0 0.100 | 0 0 0
GGAAACCGACACUAC | 0.192 | 0.524 0.594 0.533 | 0.0323 0.0891 0.100 | 0.0322 0.0908 0.0684
GGAAACCGACACUCC | 0.192 | 0.115 0.0482 0.0381 | 0 0 0 | 0 0 0
GGAAACCGACACUGC | 0.208 | 0.344 0.305 0.362 | 0.0485 0.0445 0.160 | 0.0805 0 0
GGAAACCGACACUUC | 0.256 | 0.197 0.321 0.457 | 0.0970 0.0891 0.100 | 0.0483 0.0303 0.0684
GGAAACCGACAGAAC | 0.304 | 0.409 0.241 0.267 | 0.129 0.0445 0.120 | 0.0483 0.0151 0.0684
GGAAACCGACAGACC | 0.224 | 0.0328 0.0321 0.228 | 0.0162 0 0.0200 | 0 0 0
GGAAACCGACAGAGC | 0.224 | 0.115 0.0643 0.114 | 0.0162 0 0 | 0 0 0
GGAAACCGACAGAUC | 0.240 | 0.360 0.353 0.286 | 0.146 0.0223 0.0601 | 0.0805 0 0
GGAAACCGACAGCAC | 0.160 | 0.246 0.321 0.267 | 0.162 0.111 0.120 | 0.0644 0 0
GGAAACCGACAGCCC | 0.192 | 0 0.161 0.0381 | 0.0323 0 0.0200 | 0 0 0
GGAAACCGACAGCGC | 0.240 | 0.115 0.112 0.0952 | 0.0323 0 0.0200 | 0 0 0
GGAAACCGACAGCUC | 0.112 | 0.115 0.209 0.152 | 0 0.0445 0.0200 | 0 0 0
GGAAACCGACAGGAC | 0.0960 | 0.131 0.273 0.590 | 0.0970 0 0.200 | 0.0161 0.0454 0.0912
GGAAACCGACAGGCC | 0.144 | 0.0491 0.0482 0.0571 | 0 0.0223 0 | 0 0 0
GGAAACCGACAGGGC | 0.224 | 0.0655 0.0482 0.0952 | 0.0323 0 0.0200 | 0 0 0
GGAAACCGACAGGUC | 0.224 | 0.328 0.273 0.209 | 0.0808 0.0891 0.100 | 0.0483 0.0151 0
GGAAACCGACAGUAC | 0.208 | 0.360 0.289 0.343 | 0.146 0.0668 0.120 | 0.0161 0 0
GGAAACCGACAGUCC | 0.144 | 0.197 0.305 0.381 | 0.146 0.0891 0.120 | 0.0644 0.106 0.182
GGAAACCGACAGUGC | 0.272 | 0.377 0.321 0.400 | 0.113 0.0223 0.0601 | 0.0644 0.0454 0.0684
GGAAACCGACAGUUC | 0.160 | 0.278 0.225 0.457 | 0.0808 0.0668 0.0801 | 0.0644 0.0454 0.114
GGAAACCGACAUAAC | 0.144 | 0.541 0.498 0.343 | 0.0808 0.0891 0.120 | 0.0805 0 0
GGAAACCGACAUACC | 0.256 | 0.0819 0.161 0.0571 | 0 0 0.0200 | 0 0 0
GGAAACCGACAUAGC | 0.352 | 0.0983 0.0964 0.0381 | 0 0 0 | 0 0 0
GGAAACCGACAUAUC | 0.256 | 0.344 0.225 0.305 | 0.0808 0.111 0.220 | 0.0966 0 0
GGAAACCGACAUCAC | 0.224 | 0.344 0.402 0.419 | 0.129 0.0891 0.100 | 0.0322 0.0151 0.0228
GGAAACCGACAUCCC | 0.240 | 0.131 0.112 0.133 | 0 0 0 | 0 0 0
GGAAACCGACAUCGC | 0.160 | 0.115 0.129 0.0381 | 0.0323 0 0 | 0 0 0
GGAAACCGACAUCUC | 0.288 | 0.115 0.177 0.0571 | 0 0 0 | 0.0161 0 0
GGAAACCGACAUGAC | 0.368 | 0.115 0.0482 0.0762 | 0 0 0 | 0 0 0
GGAAACCGACAUGCC | 0.320 | 0.0983 0.112 0.133 | 0.0162 0 0.0200 | 0 0 0
GGAAACCGACAUGGC | 0.224 | 0.164 0.0482 0.114 | 0 0.0223 0.0401 | 0 0 0
GGAAACCGACAUGUC | 0.288 | 0.0983 0.0643 0.0571 | 0 0 0.0200 | 0 0 0
GGAAACCGACAUUAC | 0.160 | 0.541 0.482 1.28 | 0.129 0.0445 0.220 | 0.0483 0.0303 0.114
GGAAACCGACAUUCC | 0.272 | 0.0328 0.0321 0.190 | 0 0 0.0200 | 0.0161 0 0
GGAAACCGACAUUGC | 0.288 | 0.278 0.305 0.476 | 0.0485 0.0891 0.200 | 0.0483 0 0
GGAAACCGACAUUUC | 0.368 | 0.311 0.305 0.552 | 0.129 0.0891 0.0601 | 0.0644 0.0454 0.0912
GGAAACCGACCAAAC | 0.256 | 0.0491 0.161 0.133 | 0.0162 0.0223 0 | 0.0161 0 0
GGAAACCGACCAACC | 0.0960 | 0.0819 0.0803 0.0762 | 0.0162 0 0.0200 | 0 0 0
GGAAACCGACCAAGC | 0.208 | 0.115 0.0482 0.152 | 0 0.0223 0.0200 | 0 0 0
GGAAACCGACCAAUC | 0.288 | 0.0983 0.112 0.0762 | 0 0 0.0200 | 0 0 0
GGAAACCGACCACAC | 0.208 | 0.0655 0.0482 0.0571 | 0 0 0.0200 | 0 0 0
GGAAACCGACCACCC | 0.208 | 0.115 0.0643 0.114 | 0.0162 0 0.0200 | 0 0 0
GGAAACCGACCACGC | 0.272 | 0.0819 0.0643 0.114 | 0 0 0.0401 | 0.0161 0 0
GGAAACCGACCACUC | 0.224 | 0.0983 0.145 0.114 | 0 0.0223 0.0200 | 0 0 0
GGAAACCGACCAGAC | 0.240 | 0.0819 0.161 0.0952 | 0.0162 0.0223 0.0200 | 0.0161 0 0
GGAAACCGACCAGCC | 0.336 | 0.0491 0.0321 0.0381 | 0 0 0.0200 | 0 0 0
GGAAACCGACCAGGC | 0.288 | 0.0983 0.112 0.133 | 0 0 0 | 0 0 0
GGAAACCGACCAGUC | 0.304 | 0.0819 0.0803 0.209 | 0 0 0.0401 | 0.0161 0 0
GGAAACCGACCAUAC | 0.112 | 0.262 0.369 0.343 | 0.0647 0.0668 0.140 | 0.0483 0.0605 0.0912
GGAAACCGACCAUCC | 0.256 | 0.147 0.0643 0.0952 | 0 0.0223 0 | 0 0 0
GGAAACCGACCAUGC | 0.112 | 0.0491 0.112 0.0190 | 0 0.0445 0 | 0.0161 0 0.0228
GGAAACCGACCAUUC | 0.240 | 0.360 0.402 0.381 | 0.129 0.0891 0.100 | 0 0 0.0228

Sequences that differ at fixed positions probably stem from PCR or sequencing errors, and defective variants can be carried along by functional ones.
Wild type was 33.9 per thousand in the pool and the most common sequence in every sample (inoculated region 202, 200, 159; leaf margin 724, 746, 710; systemic leaves 856, 883, 880).
Samples held 43,870 to 66,106 reads, so the smallest values rest on one or two reads.

Values reported by Wu et al. 2024 (doi:10.1371/journal.ppat.1012142).